The list shows a part of the results, in another mix than the full data. Some salts and complexes are drawn in separate pieces, as the source files them; their charges need not balance. Activity calls are given as the source filed them. No stated cut-off is given here; in the data, active means inhibition above about 52%; inactive means the rest.
Test: suppresses PrP 5' UTR mRNA reporter expression (AID 488862); further: 0 = median of the neutral control wells
Settings: cell-based PrP 5' UTR mRNA reporter, plate reader; active compounds read high; concentration not given here

Row | Structure (SMILES) | inhibition
1 | CP(=O)(Nc1ccccc1)Oc1ccc(F)cc1 (configuration not stated) | inactive: -5.2%
2 | O=C(OC1CN2CCC1CC2)c1ccccc1 (configuration not stated) | inactive: -43.2%
3 | CCC(=O)N1C2C3N(C(=O)CC)C1C1N(C(=O)CC)C(C(N1C(=O)CC)N3C(=O)CC)N2C(=O)CC | inactive: 5.34%
4 | CCN(CC)CCCOC(=O)C(O)(c1ccccc1)C1CCCCC1 (configuration not stated) | inactive: -13.7%
5 | COC(=O)c1cc2c(s1)N=C(c1ccccc1)N(C)P2(=O)N1CCOCC1 (configuration not stated) | inactive: -14.4%
6 | Cc1c([N+](=O)[O-])cc([N+](=O)[O-])c(Br)c1[N+](=O)[O-] | inactive: -9.31%
7 | Cc1ccc(OP(=O)(Nc2ccccn2)Oc2ccc(C)cc2)cc1 | inactive: -22.4%
8 | CC(=O)NC(SC(=S)N(CC(C)C)CC(C)C)C(Cl)(Cl)Cl (configuration not stated) | inactive: 7.96%
9 | COc1ccc(OP(C)(=O)Nc2ccc(SC(F)(F)F)cc2)cc1 (configuration not stated) | inactive: -22.8%
10 | O=P1(N(CCCl)CCCl)OCCC2CCCCN21 (configuration not stated) | inactive: -10.1%
11 | CCOC(=O)c1ccc(NP(C)(=O)Oc2ccc(F)cc2)cc1 (configuration not stated) | inactive: -24.3%
12 | c1ccc(-c2nn[nH]n2)c(-c2nn[nH]n2)c1 | inactive: -12.4%
13 | Cc1ccc(NP(=O)(Oc2cccc(C)c2)Oc2cccc(C)c2)nc1 | inactive: -9.38%
14 | O=C(NC1CCS(=O)(=O)C1)NP(=S)(Oc1ccccc1)Oc1ccccc1 (configuration not stated) | inactive: -49.5%
15 | CCNC(=S)/N=C(\N)N[N+](=O)[O-] | inactive: -24%
16 | COc1ccc2c(c1O)-c1c(O)c(OC)cc3c1[C@H](C2)[N+](C)(C)CC3.O=[N+]([O-])c1cc([N+](=O)[O-])c([O-])c([N+](=O)[O-])c1[O-] | inactive: -23.4%
17 | CC(=O)Nc1ccc([As](=O)(O)O)c(O)c1 | inactive: -27.5%
18 | CC(=O)Nc1ccc(Oc2c([N+](=O)[O-])cc([N+](=O)[O-])cc2[N+](=O)[O-])cc1 | inactive: -23%
19 | O=C(OCCN1CCN(CCOCc2ccccc2)CC1)C(O)(c1ccccc1)c1ccccc1 | inactive: -1.17%
20 | Cc1ccccc1CN(C)C(=O)COC(=O)C(O)(c1ccccc1)c1ccccc1 | inactive: -16%
21 | C[C@@H]1C=CCP(=O)(Oc2ccccc2)O1 (some centres not stated) | inactive: -24.5%
22 | C[C@H]1OP(=O)(Oc2ccccc2)C[C@@H]2O[C@@H]21 (some centres not stated) | inactive: -9.43%
23 | N#C/C(=C\c1ccc(N(CCBr)CCBr)cc1)C(N)=O | inactive: 12.5%
24 | CC(=O)c1ccc(N2CC2c2ccncc2)cc1 (configuration not stated) | inactive: -17.7%
25 | O=C(OC1CN2CCC1CC2)c1ccc([N+](=O)[O-])cc1 (configuration not stated) | inactive: -2.19%

Row | Structure (SMILES) | inhibition
26 | COC(=O)C1(C)COP(=O)(NCc2ccccc2)OC1 (configuration not stated) | inactive: -10.9%
27 | CC(C)(C)C(=O)NC(Sc1ccccc1)C(Cl)(Cl)Cl (configuration not stated) | inactive: -23.8%
28 | CC(C)c1ccc(OP(C)(=O)Nc2ccc(SC(F)(F)F)cc2)cc1 (configuration not stated) | inactive: -17.2%
29 | CCc1cc(O)c([N+](=O)[O-])c(C)c1[N+](=O)[O-] | inactive: -23.4%
30 | CP(=O)(Nc1ccccc1F)Oc1ccccc1 (configuration not stated) | inactive: -7.89%
31 | O=P1(Nc2nc3ccc(Cl)cc3s2)COc2ccccc2O1 (configuration not stated) | inactive: -22.7%
32 | CCOc1ccc(C2=NCC(CBr)S2)cc1 (configuration not stated) | inactive: -11.9%
33 | CCc1ccc(OP(C)(=O)O)cc1 | inactive: -6.16%
34 | CP(=O)(Nc1ccccn1)Oc1ccccc1 (configuration not stated) | inactive: -10.4%
35 | COc1ccccc1OP(C)(=O)Nc1ccc(C)cc1C (configuration not stated) | inactive: -19.1%
36 | Oc1ccccc1CNc1ccccn1 | inactive: -6.99%
37 | O=C(NC(Sc1ccncn1)C(Cl)(Cl)Cl)c1ccccc1 (configuration not stated) | inactive: 1.98%
38 | O=[N+]([O-])c1cc([N+](=O)[O-])c(Nc2ccccn2)c([N+](=O)[O-])c1 | inactive: -14%
39 | CC(C)CC(=O)NC(Sc1ccc(Cl)cc1)C(Cl)(Cl)Cl (configuration not stated) | inactive: -17%
40 | Nc1cc(N)c2nonc2c1[N+](=O)[O-] | inactive: -17.9%
41 | Cc1c(NP(C)(=O)Oc2ccc(C(C)C)cc2)c(=O)n(-c2ccccc2)n1C (configuration not stated) | inactive: -14.8%
42 | CN(C)CCOC(=O)C(O)(c1ccccc1)C1CCCC1 (configuration not stated) | inactive: -22.8%
43 | Clc1ccc(Cl)c(NC2=NCC(CBr)S2)c1 (configuration not stated) | inactive: -15.5%
44 | CN1CCCC(OC(=O)C(c2ccccc2)c2ccccc2)C1 (configuration not stated) | inactive: -4.98%
45 | COc1ccc(OP(C)(=O)Nc2ccccn2)cc1 (configuration not stated) | inactive: -5.59%
46 | COc1ccccc1OP(=O)(Nc1ccc(C)cn1)Oc1ccccc1OC | inactive: -17.7%
47 | COc1ccccc1OP(C)(=O)Nc1ccc(Br)cc1 (configuration not stated) | inactive: -17.8%
48 | CN(C(=O)Cc1ccc(Cl)c(Cl)c1)[C@H]1CCCC[C@H]1N1CCCC1 | inactive: -7.49%
49 | Cc1ccc(N/C(=N/P(=O)(N2CCOCC2)N2CCOCC2)N2CCOCC2)cc1 | inactive: -14.2%
50 | NC(=O)c1cc([N+](=O)[O-])cc([N+](=O)[O-])c1N | inactive: -8.68%

Row | Structure (SMILES) | inhibition
51 | Nc1cccc2ccc([As](=O)(O)O)cc12 | inactive: -6.3%
52 | CP(=O)(OCCOc1ccccc1)OCCOc1ccccc1 | inactive: -39.1%
53 | CCCCCCCCCCCCCCCC1C[N+](C)(C)CCOP(C)(=O)O1 (configuration not stated) | inactive: -9.29%
54 | CP(=O)(Nc1ccc(Cl)cc1Cl)Oc1ccccc1 (configuration not stated) | inactive: -31.8%
55 | CCN(N=Nc1nonc1N)c1nonc1N | inactive: -5.83%
56 | COc1ccc(OP(C)(=O)Nc2ccccc2Br)cc1 (configuration not stated) | inactive: -11.2%
57 | CCOP(=O)(Nc1ccccc1)OCC | inactive: -20.2%
58 | Cc1cc(SC(NC(=O)c2ccc(F)cc2)C(Cl)(Cl)Cl)ncn1 (configuration not stated) | inactive: -4.13%
59 | Cc1ccc(NP(=O)(Oc2ccccc2F)Oc2ccccc2F)nc1 | inactive: -17%
60 | COc1ccccc1OP(C)(=O)Nc1ccc(C)c(C)c1 (configuration not stated) | inactive: -7.43%
61 | O=C1C(O)=C([N+](=O)[O-])C(=O)C(O)=C1[N+](=O)[O-] | inactive: -17%
62 | Cc1cc(C)cc(OP(C)(=O)Nc2cccc(C(F)(F)F)c2)c1 (configuration not stated) | inactive: -25.7%
63 | O=P(Nc1nc2ccc(Cl)cc2s1)(c1ccccc1)c1ccccc1 | inactive: 1.31%
64 | O=C(O)c1ccccc1[As](=O)(O)O | inactive: 2.25%
65 | CC(=O)Nc1ccc([As](=O)(O)O)cc1 | inactive: 5.98%
66 | CCCC1OP(N)(=O)OCC1CC (configuration not stated) | inactive: 1.99%
67 | O=C(O)CNc1ccc([As](=O)(O)O)cc1 | inactive: -23.7%
68 | O=[N+]([O-])c1cccc(NC2=NCC(CBr)S2)c1 (configuration not stated) | inactive: -12.3%
69 | COC(=O)C1(C)COP(=O)(Nc2ccccc2)OC1 (configuration not stated) | inactive: -18.8%
70 | O=[N+]([O-])c1ncn(CCn2ncnc2[N+](=O)[O-])n1 | inactive: -21.6%
71 | CC(C)(C)C(=O)NC(Sc1ccncn1)C(Cl)(Cl)Cl (configuration not stated) | inactive: -9.15%
72 | CP(=O)(OC12CC3CC(CC(C3)C1)C2)OC12CC3CC(CC(C3)C1)C2 | inactive: -33.6%
73 | CCOC(=O)c1ccc(NP(C)(=O)Oc2ccc(Cl)cc2)cc1 (configuration not stated) | inactive: -44.8%
74 | O=C(Nc1cc([As](=O)(O)O)ccc1O)c1ccccc1 | inactive: -15.2%
75 | O=P1(N(CCCl)CCCl)OCCCS1 (configuration not stated) | inactive: -20.8%

Row | Structure (SMILES) | inhibition
76 | CC1CCN(C(=O)Oc2c(Cl)cc(Cl)c3cccnc23)CC1 | inactive: -19.7%
77 | CC(C)=N/N=C(\N)N[N+](=O)[O-] | inactive: -28.1%
78 | CN(C)C(=O)c1c([N+](=O)[O-])cc([N+](=O)[O-])cc1[N+](=O)[O-] | inactive: 2.63%
79 | CN(C)C(=O)OCCc1n(C)cc[n+]1C | inactive: -20.3%
80 | CCN(/C(=N/P(=O)(N1CCOCC1)N1CCOCC1)N1CCOCC1)c1ccc(OC)cc1 | inactive: -9.95%
81 | CP(=O)(Nc1ccc(Cl)cc1)Oc1ccc(F)cc1 (configuration not stated) | inactive: -9.7%
82 | Nc1ccc([As](=O)(O)c2ccc(N)cc2)cc1 | inactive: 3.17%
83 | CC(C)(C)c1ccc(OP(C)(=O)O)cc1 | inactive: -11.9%
84 | COc1ccccc1OP(C)(=O)Nc1ccccc1Br (configuration not stated) | inactive: 4.7%
85 | C[N+]1=C2C=CC=CC=C2SC12C([N+](=O)[O-])=CC([N+](=O)[O-])=C[C-]2[N+](=O)[O-] (configuration not stated) | inactive: -27.2%
86 | CP(=O)(Oc1ccccc1)N1CCOC1=O (configuration not stated) | inactive: -11.4%
87 | Cc1ccc(NP(=O)(Oc2ccccc2)Oc2ccccc2)nc1 | inactive: -29.7%
88 | O=[N+]([O-])c1cc([N+](=O)[O-])c(CCNc2ccccc2)c([N+](=O)[O-])c1 | inactive: -7.98%
89 | CCc1nc2c(n1)c1c(non1O)c1c2no[n+]1[O-] | inactive: -17%
90 | CCc1ccc(OP(C)(=O)Nc2cccnc2)cc1 (configuration not stated) | inactive: 0.875%
91 | COc1ccccc1OP(C)(=O)Nc1c(C)n(C)n(-c2ccccc2)c1=O (configuration not stated) | inactive: -19.1%
92 | CC(=O)N1C2C3N(C(C)=O)C1C1N(C(C)=O)C(C(N1C(C)=O)N3C(C)=O)N2C(C)=O | inactive: -2.85%
93 | O=[N+]([O-])c1cccc2n[nH]nc12 | inactive: -8.39%
94 | O=C(OCCCN1CCCC1)C(O)(c1ccccc1)C1CCCCC1 (configuration not stated) | inactive: -23.9%
95 | CCN(CC)CC(O)COC(=O)C(O)(c1ccccc1)C1CCCCC1 (configuration not stated) | inactive: -12.9%
96 | COc1ccc(OP(C)(=O)Nc2ccc(Br)cc2)cc1 (configuration not stated) | inactive: -15.6%
97 | COc1ccc(C2=NCC(CBr)S2)cc1 (configuration not stated) | inactive: -11.9%

Reference: PubChem BioAssay AID488862 (Broad Institute, 2010)
